Consider 18 test systems from the supplement of paper PMC3578754.

Fold change is the IC50 on the isolate divided by the IC50 on a reference virus; 1 = unchanged, higher = more resistant. Changes are given against the subtype B consensus. No active / inactive call. The values were gathered from many studies (numbered anew) with different assays, which the source does not name. Most viruses are clinical isolates; some are laboratory strains or clones with known resistance changes. Isolates with mixed residues are left out; stretches that were not sequenced show no change. Round top values that many isolates share are read here as limits; other very high values and 0.1 may be limits too. The protease changes I3V and N37S, insertions and deletions cannot be read from the source.

Common to all, as to assay: fold change of IC50 against reference virus; higher = more resistant; Cell-culture drug susceptibility tests of virus bearing the protease of each isolate, gathered from many studies.
Compound in one assay: COC(=O)N[C@H](C(=O)N[C@@H](Cc1ccccc1)[C@@H](O)CN(Cc1ccc(-c2ccccn2)cc1)NC(=O)[C@@H](NC(=O)OC)C(C)(C)C)C(C)(C)C [atazanavir]
Compound in another assay: Cc1c(O)cccc1C(=O)N[C@@H](CSc1ccccc1)[C@H](O)CN1C[C@H]2CCCC[C@H]2C[C@H]1C(=O)NC(C)(C)C [nelfinavir]
Compound in the next assay: CC(C)c1nc(CN(C)C(=O)N[C@H](C(=O)N[C@@H](Cc2ccccc2)C[C@H](O)[C@H](Cc2ccccc2)NC(=O)OCc2cncs2)C(C)C)cs1 [ritonavir]
Compound in a further assay: CC(C)(C)NC(=O)[C@@H]1CN(Cc2cccnc2)CCN1C[C@@H](O)C[C@@H](Cc1ccccc1)C(=O)N[C@H]1c2ccccc2C[C@H]1O [indinavir]
Compound in another assay: CC(C)(C)NC(=O)[C@@H]1C[C@@H]2CCCC[C@@H]2CN1C[C@@H](O)[C@H](Cc1ccccc1)NC(=O)[C@H](CC(N)=O)NC(=O)c1ccc2ccccc2n1 [saquinavir]
Compound in the next assay: Cc1cccc(C)c1OCC(=O)N[C@@H](Cc1ccccc1)[C@@H](O)C[C@H](Cc1ccccc1)NC(=O)[C@H](C(C)C)N1CCCNC1=O [lopinavir]

Consider “HIV-1 isolate 525 (protease changes: I15V K20R E35D M36I N37D F53L I62V L63P H69K A71T I72V V77I V82A, study 15)”, for which the “fold change of IC50 against reference virus” value (from here on “fold change of IC50”) with atazanavir was 2.1; with nelfinavir, 1.6; with ritonavir, 11; with indinavir, 1.6; in the assay with saquinavir, 0.6; with lopinavir it was 2.2.

Consider “HIV-1 isolate 703 (protease changes: L10F I13V L19I L24I L33F M46I I54V K55R L63P A71V L76V V82A I93L L97I, study 64)”, for which the “fold change of IC50” value with atazanavir was found to be 1.2; with nelfinavir, 8.3; with ritonavir it was 44; in the assay with indinavir it was 37; with saquinavir it was 1.6; with lopinavir it was 170.

Regarding “HIV-1 isolate 1193 (protease changes: L10I I13V K20R L33F E34N E35D N37D K43T G48M I54S Q61E I62V L63P I64V T74S V77I V82T, study 15)”, the “fold change of IC50” value was found to be 120 with atazanavir; 110 with nelfinavir; 190 with ritonavir; 140 in the assay with indinavir; 500 with saquinavir; 99 with lopinavir.

“HIV-1 isolate 371 (protease changes: L10I K14R I15V K20I R41I M46I I54V D60N I62V L63P I64V A71V V82T I84V I85V, study 15)”: the “fold change of IC50” value stood at 10 with atazanavir; 12 in the assay with nelfinavir; 54 with ritonavir; 17 with indinavir; 15 with saquinavir; 17 in the assay with lopinavir.

For “HIV-1 isolate 29 (protease changes: I15V E35D L63Q V77I, study 15)”, the “fold change of IC50” value with atazanavir worked out at 0.6; with nelfinavir, 0.6; with ritonavir, 0.6; with indinavir, 0.5; in the assay with saquinavir, 0.5; with lopinavir, 0.5.

As to “HIV-1 isolate 1519 (protease changes: L10V M36I F53L L63P V82A, study 138)”, the “fold change of IC50” value with atazanavir was determined as 1.9; with nelfinavir, 2.5; in the assay with ritonavir, 14.5; in the assay with indinavir, 2.5; with saquinavir it was 1.2; with lopinavir, 4.3.

Take “HIV-1 isolate 935 (protease changes: T12P K14R G16E L33I P39S R57K D60E L63P I93L, study 15)”: the “fold change of IC50” value with atazanavir amounted to 0.5; with nelfinavir, 0.7; with ritonavir, 0.5; in the assay with indinavir, 0.6; with saquinavir, 0.3; in the assay with lopinavir, 0.3.

As to “HIV-1 isolate 1290 (protease changes: K14R I15V R41K L63P, study 64)”, the “fold change of IC50” value in the assay with atazanavir worked out at 0.9; in the assay with nelfinavir it was 1.1; with ritonavir it was 1; in the assay with indinavir, 0.9; in the assay with saquinavir, 0.7; in the assay with lopinavir, 0.8.

“HIV-1 isolate 948 (protease changes: L10I I15V L63V I93L, study 83)”: the “fold change of IC50” value with atazanavir was found to be 1.3; in the assay with nelfinavir, 1.5; in the assay with ritonavir, 1.2; in the assay with indinavir it was 1.6; with saquinavir, 1.2; with lopinavir, 1.1.

Consider “HIV-1 isolate 1619 (protease changes: I15V D30N E35D M36V N37T K45Q M46V I64V, study 65)”, for which the “fold change of IC50” value with atazanavir was found to be 2.2; with nelfinavir, 24; with ritonavir, 0.7; in the assay with indinavir, 0.8; with saquinavir, 0.8; in the assay with lopinavir, 0.5.

Take “HIV-1 isolate 1264 (protease changes: L63P H69Q V77I, study 15)”: the “fold change of IC50” value with atazanavir was determined as 0.3; with nelfinavir, 0.3; in the assay with ritonavir, 0.3; with indinavir, 0.3; with saquinavir, 0.3; in the assay with lopinavir it was 0.2.

In the case of “HIV-1 isolate 1058 (protease changes: L10I M46I I54V L63R A71V G73S V77I V82A L90M, study 15)”, the “fold change of IC50” value in the assay with atazanavir was 26; with nelfinavir, 36; with ritonavir, 40; in the assay with indinavir, 28; with saquinavir, 25; in the assay with lopinavir it was 26.

Regarding “HIV-1 isolate 343 (protease changes: L10I L19I K20R E35D M36I I54V D60E I62V L63P A71T V82A L90M, study 15)”, the “fold change of IC50” value with atazanavir came to 16; with nelfinavir, 43; with ritonavir it was 177; with indinavir, 30; with saquinavir it was 37; with lopinavir, 37.

Take “HIV-1 isolate 285 (protease changes: L10I I15V L63P A71V V77I I85V N88D L90M, study 15)”: the “fold change of IC50” value in the assay with atazanavir is 11; in the assay with nelfinavir, 13; with ritonavir, 41; with indinavir, 10; in the assay with saquinavir, 165; with lopinavir it was 6.2.

In the case of “HIV-1 isolate 1251 (protease changes: L10I L24I M46I F53L L63P A71V V77I V82T I84V, study 138)”, the “fold change of IC50” value with atazanavir was 17.2; in the assay with nelfinavir, 6.1; with ritonavir it was 61.5; with indinavir, 8.4; in the assay with saquinavir, 20.9; with lopinavir it was 10.9.

As for “HIV-1 isolate 913 (protease changes: D30N M46I V77I, study 138)”, the “fold change of IC50” value amounted to 1.3 with atazanavir; 23.3 in the assay with nelfinavir; 0.6 with ritonavir; 1.1 with indinavir; 0.3 with saquinavir; 0.6 with lopinavir.

Turning to “HIV-1 isolate 105 (protease changes: L10I V11I I13V L33F E35D N37H R41K M46L I54V L63A A71V V82A I84V I93L, study 15)”, the “fold change of IC50” value in the assay with atazanavir was 9.8; in the assay with nelfinavir, 8; in the assay with ritonavir, 82; in the assay with indinavir it was 5.7; in the assay with saquinavir, 6.5; in the assay with lopinavir it was 41.

For the test system “HIV-1 isolate 1527 (protease changes: L10I K20I M36I I54V L63P A71V V82T, study 138)”, the “fold change of IC50” value was determined as 15.2 with atazanavir; 29.8 with nelfinavir; 36.7 with ritonavir; 23.4 in the assay with indinavir; 7.1 with saquinavir; 10.1 in the assay with lopinavir.
